The values below come from paper PMC10666276 (Biochemistry, 2023).

The test system of this data set is NC(=O)c1ccc[n+]([C@@H]2O[C@H](COP(=O)(O)OP(=O)(O)OC[C@H]3O[C@@H](n4cnc5c4ncn4ccnc54)[C@H](O)[C@@H]3O)[C@@H](O)[C@H]2O)c1. Put plainly: purified protein. As to conditions: 50 mM sodium acetate pH 5.5, 150 mM NaCl, 500 μM CaCl2, 25 °C, 10 ng enzyme.

A word on the Km: it is the concentration of substrate that gives half-maximal velocity. What is called Vmax is the rate approached at saturating substrate. In the case of “AfNADase (Aspergillus fumigatus Af293; D219A/E220A)”, the Km worked out at 88.3 ± 12.2 µM and the maximum rate (Vmax) was 2960 µmol/min/mg.
